Construct, isoform or probe ends are uncertain for at least one entry. At least one verdict rests on a figure or table, not on a statement of the authors.
Biological target: NSP9ΔC (Bombyx mori cypovirus 1 (BmCPV1)) (UniProt O72505)
Assay: EMSA
Settings: SEC: 10 mM HEPES pH 7.5, 100 mM NaCl, recombinant protein, residues 1-286, label: 5' 6-FAM

Sequence	binding result (no two-band pattern)	binding result
AGTAAATCCCAGGCGCTCGGGTCGTTAGCC (double strand) [30 bp dsDNA]	binds	
AGTAAGCTGTTAGCC (double strand) [15 bp dsDNA]		binds
